Data source: PubChem BioAssay AID504761 (Drosophila RNAi Screening Center, 2011)
The deposit covers about 22,000 reagents; this is a random part of those with a known target gene and a result. Of all reagents, 116 (0.52%) got an active call. 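Calls depend on retest data that are not deposited; infection was ranked per plate without normalising between plates; the unit of the infection score is not given.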 The raw values are shown without normalisation. Entries without a mark were called inactive. A plus sign joins genes that one reagent is predicted to hit. Not stated in the record: the amount of reagent, the time to read-out.

- Aim: 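Genome-wide fly cell screen for genes dengue virus requires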 (primary screen)
- Cells: D.Mel-2 cells from Drosophila
- Reagents: long dsRNA against Drosophila genes
- Treatment: infection with dengue virus type 2; dose and infection time not stated
- Measured: 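Cells stained for dengue envelope protein and imaged; percent of infected cells per well on duplicate plates, ranked by infection, with stained nuclei counted for cell number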
- Reading the numbers: infection score: higher = more virus-infected cells; cell count: higher = more cells in the well
- Call rule: 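Low infection ranks in the two replicates (chance level up to 0.065) followed by a retest with a 1.5-fold or larger significant decrease, p below 0.05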
- Meaning of the calls: active = confirmed: knock-down lowers infection; inactive = not picked or not confirmed

no.	gene knocked down	amplicon	infection score, replicate 1	infection score, replicate 2	cell count, replicate 1	cell count, replicate 2
1	Tk (Tachykinin)	DRSC14954	3.77	5.9	6506	6748
2	Tk (Tachykinin)	DRSC21972	2.02	3.35	6477	6771
3	Tk (Tachykinin)	DRSC27140	10.4	19	5444	6404
4	Cul2 (Cullin 2)	DRSC03710	17.8	16.9	6129	5982
5	Syx17 (Syntaxin 17)	DRSC08591	9.69	1.86	6512	6507
6	CG2076	DRSC19832	10.6	20.8	6236	6440
7	CG2076	DRSC27047	12.6	8.28	6219	6025
8	Mst84B (Male-specific transcript 84B)	DRSC12579	13.7	0.9	5336	5585
9	Mst84B (Male-specific transcript 84B)	DRSC27767	18.7	12.7	5515	6673
10	CG2533	DRSC19855	13.9	23.6	4889	4998
11	CG2533	DRSC28777	17.8	7.07	5041	1952
12	Dh44 (Diuretic hormone 44)	DRSC12747	1.58	4.13	5696	5519
13	Dh44 (Diuretic hormone 44)	DRSC16409	3.66	8.17	6113	6062
14	pira (pirate)	DRSC19494	16.5	17.3	4581	6955
15	AttD (Attacin-D)	DRSC16272	3.24	12.5	6697	5609
16	Drl-2 (Derailed 2)	DRSC05393	4.42	2.11	6245	6015
17	Drl-2 (Derailed 2)	DRSC06155	3.6	3.59	6300	6514
18	Drl-2 (Derailed 2)	DRSC06858	14.3	5.82	6781	6170
19	CG33203	DRSC14876	4.05	4.27	6971	6483
20	CG33203	DRSC14877	2.93	18.3	6147	5542
21	CG33203	DRSC23428	4.04	11.1	6212	4234
22	CG2663	DRSC12314	4.84	27	6987	5958
23	CG2663	DRSC28701	10.1	8.65	5547	5642
24	AIMP1 (aaRS-interacting multifunctional protein 1)	DRSC07118	15.4		6084	587
25	AIMP1 (aaRS-interacting multifunctional protein 1)	DRSC25922	6.58	4.64	6122	6180

8 entries from above, showing only “cell count, replicate 1”:
Tk (Tachykinin) [DRSC27140]: 5444
Cul2 (Cullin 2) [DRSC03710]: 6129
Syx17 (Syntaxin 17) [DRSC08591]: 6512
CG2076 [DRSC19832]: 6236
CG2076 [DRSC27047]: 6219
Mst84B (Male-specific transcript 84B) [DRSC12579]: 5336
Mst84B (Male-specific transcript 84B) [DRSC27767]: 5515
CG2533 [DRSC19855]: 4889

Next reagents follow:
no.	gene knocked down	amplicon	infection score, replicate 1	infection score, replicate 2	cell count, replicate 1	cell count, replicate 2
26	Jon65Aii (Jonah 65Aii)	DRSC10665	5.67	5.68	6152	5899
27	CG32333	DRSC08627	5.53	8.15	6983	5866
28	CG32333	DRSC08629	1.83	0.4	5738	6064
29	Ccp84Ab	DRSC12587	4.26	24.6	5960	5016
30	Ccp84Ab	DRSC25096	1.9	2.1	6801	6196
31	PpD5 (Protein phosphatase D5)	DRSC04641	13.8	8.36	6632	6757
32	PpD5 (Protein phosphatase D5)	DRSC23312	0.87	14.6	6747	6978
33	CG5388	DRSC15789	2.37	5.73	6974	5967
34	BEAF-32 + CG42254 (retired record)	DRSC05503	1.31	1.39	6042	6103
35	CheB53a (Chemosensory protein B 53a)	DRSC06625	15.9	13.2	6371	6194
36	RpS8 (Ribosomal protein S8)	DRSC16318	2.63	0.84	1219	478
37	Mfap1 (Microfibril-associated protein 1)	DRSC08154	15.2	25.1	2130	2793
38	Mfap1 (Microfibril-associated protein 1)	DRSC29205	21.6	0.29	3373	340
39	Cul3 (Cullin 3)	DRSC03537	12.2	9.17	5751	5386
40	Cul3 (Cullin 3)	DRSC21525	1.52	2.35	5927	6758
41	Cul3 (Cullin 3)	DRSC26199	11.9	11.6	5862	5770
42	Cul3 (Cullin 3)	DRSC27885	1.78	9.96	5944	5022
43	CG32374	DRSC10986	3.87	4.31	6050	6364
44	Prosalpha3 (Proteasome alpha3 subunit)	DRSC04644	4.37	5.03	1808	1570
45	CG11570	DRSC09844	1.92	3.34	6402	6804
46	fs(1)K10 (female sterile (1) K10)	DRSC18775	4.24	5.8	6105	6479
47	fs(1)K10 (female sterile (1) K10)	DRSC25258	0.33	3.16	5421	5973
48	Proc-R (Proctolin receptor)	DRSC18410		26.2	455	3810
49	CG4440	DRSC02747	3.54	3.57	1413	5964
50	CG4440	DRSC28042	17.3	10.4	2962	5539
51	Hsp70Aa + Hsp70Ab	DRSC21246	0.23	1.4	6096	5640
52	Hsp70Aa + Hsp70Ab	DRSC29327	5.44	7.18	1231	2285
53	CG1724	DRSC20548	4.48	3.43	6428	5740
54	CG1724	DRSC25668	4.5	2.93	5949	6017
55	CG32264	DRSC08061	0.33	1.02	5141	3223
56	CG32264	DRSC08167	0.9	0.83	6028	6156
57	CG32264	DRSC08169	7.92	0.22	3548	445
58	CG32264	DRSC08285	0.39	2.46	6672	6168
59	CG32264	DRSC25774	2.45	1.78	6122	6405
